Compound potency records, mixed from different reports. Data source: NIAID ChemDB in PubChem.

Common to all: tests on isolated targets; agent: HIV-1; target: Reverse transcriptase; endpoint: fold resistance

Blank or dashed fields: not listed here. Fold resistance: result on the changed form divided by that on wild type. Rows are shuffled and stem from different studies. Two numbers with a dash give a range or band.

compound | method | changes | strain | result
CCN1c2ncc(CCOc3ccc(-c4cc(C(=O)O)ccc4C)cc3C)cc2C(=O)N(C)c2cccnc21 | nucleotide incorporation / radiometric | RT-K103N Y181C | IIIB | >2
O=c1cc(Cc2ccccc2)nc(SCCCCO)[nH]1 |  | RT-Y188L |  | 2.07
COc1cccc2c(-n3c(Br)nnc3SCC(=O)Nc3ccc(C(=O)O)cc3Cl)cccc12 | nucleotide incorporation / radiometric | RT-Y181C |  | >1
CCN1c2ncc(CCOc3ccc(NS(C)(=O)=O)cc3C)cc2C(=O)N(C)c2cccnc21 | nucleotide incorporation / radiometric | RT-K103N Y181C | IIIB | 1
CCc1ccc(-n2c(Br)nnc2SCC(=O)Nc2ccc(C(=O)NCC3CCCO3)cc2Cl)c2ccccc12 | nucleotide incorporation / radiometric | RT-Y181C |  | >1
CCN1c2ncc(CCOc3cccc4c3ccc[n+]4[O-])cc2C(=O)Nc2c(C)cc(Cl)nc21 | nucleotide incorporation / radiometric | RT-V106A |  | 8.1
CCN1c2ncc(CCOc3ccc(CCC(=O)O)c4c3CCCC4)cc2C(=O)N(C)c2cccnc21 | nucleotide incorporation / radiometric | RT-V106A |  | >10
Cc1cc(C)c(-n2c(SCC(=O)Nc3ccc(S(N)(=O)=O)cc3Cl)nnc2C(F)(F)F)c2c1CCCC2 | nucleotide incorporation / radiometric | RT-Y188L |  | >2
CCN1c2ncc(CCOc3ccc(-c4cccc(C(=O)O)c4)cc3C)cc2C(=O)N(C)c2cccnc21 | nucleotide incorporation / radiometric | RT-K103N Y181C | IIIB | 1
CC(C)=CCN1Cc2cccc3[nH]c(=S)n(c23)C[C@@H]1C | nucleotide incorporation | RT-Y181I |  | 262
CCN1c2ncc(CCOc3ccc4cc(CC(=O)NN)ccc4c3)cc2C(=O)N(C)c2cccnc21 | nucleotide incorporation / radiometric | RT-V106A |  | 1
Cc1c(Cc2ccccc2)nc(NCCCCN)[nH]c1=O |  | RT-V106A |  | >10.3
CCN1c2ncc(CCOc3ccc(-c4ccc(C(=O)O)c[n+]4[O-])cc3C)cc2C(=O)N(C)c2cccnc21 | nucleotide incorporation / radiometric | RT-K103N Y181C | IIIB | 1
NS(=O)(=O)c1ccc(NC(=O)CSc2nnc(Br)n2-c2ccc(C3CC3)c3c2CCCC3)c(Cl)c1 | nucleotide incorporation / radiometric | RT-Y188L |  | >2
CCN1c2ncc(CCOc3ccc(C(=O)O)c4c3CCC4)cc2C(=O)N(C)c2ccc(Cl)nc21 | nucleotide incorporation / radiometric | RT-Y188L |  | 1–10
Cc1ccc2ccccc2c1-n1c(Br)nnc1SC(C)C(=O)Nc1ccc(S(N)(=O)=O)cc1Cl | nucleotide incorporation / radiometric | RT-Y188L |  | >2
CCc1cc(NCc2nc3c(C)ccc(C)c3o2)c(=O)[nH]c1C | nucleotide incorporation | RT-K103N Y188C |  | 70.7
CC[C@H](C)[C@H](NC(=O)c1ccc(NC(=O)CSc2nnc(Br)n2-c2ccc(C3CC3)c3ccccc23)c(Cl)c1)C(=O)O | nucleotide incorporation / radiometric | RT-Y188L |  | >1
CCN1c2ncc(CCOc3ccc(C(=O)O)c4c3CCN(C(=O)OC(C)(C)C)C4)cc2C(=O)N(C)c2cccnc21 | nucleotide incorporation / radiometric | RT-Y188L |  | 1–10
Cc1c(Cc2ccccc2)nc(SCCCCO)[nH]c1=O |  | RT-K103N |  | 1.19
COc1ccc2cccc(-n3c(Br)nnc3SCC(=O)Nc3ccc(C(=O)O)cc3Cl)c2c1 | nucleotide incorporation / radiometric | RT-Y188L |  | >2
CCN1c2ncc(CCOc3ccc(C(=O)NN)cc3C)cc2C(=O)N(C)c2cccnc21 | nucleotide incorporation / radiometric | RT-K103N Y181C | IIIB | 1

Again, the opening 2 rows:

{"compound": "CCN1c2ncc(CCOc3ccc(-c4cc(C(=O)O)ccc4C)cc3C)cc2C(=O)N(C)c2cccnc21", "method": "nucleotide incorporation / radiometric", "changes": "RT-K103N Y181C", "strain": "IIIB", "result": ">2"}
{"compound": "O=c1cc(Cc2ccccc2)nc(SCCCCO)[nH]1", "changes": "RT-Y188L", "result": "2.07"}